Measured values from several laboratories, pooled; numbers as filed in NIAID ChemDB.

All rows: tests in culture

Rows are shuffled and stem from different studies. Inhibition is in % at the dose shown (toxicity tests: loss of growth or viability). Fold resistance: result on the changed form divided by that on wild type. ECn: concentration that inhibits the pathogen or its effect by n%. An empty or dashed field is not shown. Zone: diameter of growth inhibition. MIC50, MIC90 and the like: level of inhibition, or share of isolates inhibited.

{"SMILES": "Nc1nc(N)c2ncn(CCOCP(=O)(O)O)c2n1", "method": "plaque count", "read-out": "EC50", "strain": "PCV-resistant/A", "cell line": "HEL", "species": "Varicella zoster virus", "value": "6.8 µg/mL"}
{"SMILES": "N=C(N)c1ncn([C@@H]2O[C@H](CO)[C@@H](O)[C@H]2O)n1", "method": "cytopathic effect / visual reading", "read-out": "EC50", "strain": "Uganda", "cell line": "VERO", "species": "West Nile virus", "value": "320 µg/mL"}
{"SMILES": "NC(=O)c1ncn([C@@H]2O[C@H](CO)[C@@H](O)[C@H]2O)n1", "method": "ELISA", "read-out": "EC50", "strain": "LONG", "cell line": "HEP-2", "species": "Respiratory syncytial virus", "value": "10.5 µM"}
{"SMILES": "Cc1c(CSc2cccc3ccccc23)cnc2nc(N)nc(N)c12", "read-out": "inhibition", "tested at": "1 µg/mL", "cell line": "RK-13", "species": "Encephalitozoon intestinalis", "value": "77.5%"}
{"SMILES": "O=c1[nH]c(=O)n([C@@H]2O[C@H](CO)[C@@H](O)[C@@H]2O)cc1/C=C/Br", "method": "plaque count", "read-out": "EC50", "strain": "PFA-resistant/B", "cell line": "HEL", "species": "Varicella zoster virus", "value": "0.000095 µg/mL"}
{"SMILES": "C[C@@H](c1nc(-c2ccc(C#N)cc2)cs1)[C@](O)(Cn1cnnc1)c1ccc(F)cc1F", "read-out": "MIC", "strain": "AD", "species": "Candida albicans", "value": "0.25 µg/mL"}
{"SMILES": "O=C(Nc1ccc(Br)cc1)c1cc(Cl)ccc1OP(=O)(Oc1ccccc1)c1ccccc1", "read-out": "MIC", "strain": "My 6509/96", "species": "Mycobacterium kansasii", "conditions": "21 d", "value": "8 µM"}
{"SMILES": "CC[C@H]1OC(=O)[C@H](C)[C@@H](O[C@H]2C[C@@](C)(OC)[C@@H](O)[C@H](C)O2)[C@H](C)[C@@H](O[C@@H]2O[C@H](C)C[C@H](N(C)C)[C@H]2O)[C@](C)(OC)C[C@@H](C)C(=O)[C@H](C)[C@@H](O)[C@]1(C)O", "method": "broth dilution", "read-out": "MIC", "species": "Mycobacterium bolletii", "value": "2 µg/mL"}
{"SMILES": "Nc1ncnc2c1ncn2C[C@@H](CO)OCP(=O)(O)O", "method": "cytopathic effect", "read-out": "EC50", "strain": "TAK (TYPE 41)", "species": "Adenovirus", "value": "1 µg/mL"}
{"SMILES": "C[C@H]1NCc2cc(-c3ccc4c(=O)c(C(=O)O)cn(C5CC5)c4c3OC(F)F)ccc21", "read-out": "MIC90", "strain": "38 strains (ampicillin-susceptible)", "species": "Haemophilus influenzae", "value": "0.008 µg/mL"}
{"SMILES": "NC(=O)c1c[se]c([C@@H]2O[C@H](CO)[C@@H](O)[C@H]2O)n1", "method": "cytopathic effect", "read-out": "EC50", "strain": "Uganda", "cell line": "VERO", "species": "West Nile virus", "value": "10 µg/mL"}
{"SMILES": "O=C(Nc1ccc(Br)cc1)c1cc(Cl)ccc1OP(=O)(OCc1ccccc1)OCc1ccccc1", "read-out": "MIC", "strain": "My 235/80", "species": "Mycobacterium kansasii", "conditions": "7 d", "value": "32 µM"}
{"SMILES": "CC1COc2c(N3CCN(C)CC3)c(F)cc3c(=O)c(C(=O)O)cn1c23", "read-out": "MIC90", "strain": "20 strains (oxacillin-susceptible)", "species": "Staphylococcus aureus", "value": "0.25 µg/mL"}
{"SMILES": "CN(C)c1cc(NC(=O)CNC(C)(C)C)c(O)c2c1C[C@H]1C[C@H]3[C@H](N(C)C)C(=O)C(C(N)=O)=C(O)[C@@]3(O)C(=O)C1=C2O", "method": "broth dilution", "read-out": "MIC", "strain": "X1", "species": "Mycobacterium abscessus", "value": "0.5 µg/mL"}
{"SMILES": "Nc1nccc2c1ncn2[C@@H]1C[C@H](CO)[C@@H](O)[C@H]1O", "method": "cytopathic effect", "read-out": "EC50", "cell line": "CV-1", "species": "Vesicular stomatitis virus", "value": ">400 µg/mL"}
{"SMILES": "CCOC(=O)Nc1cc2c(c(N)n1)N=C(c1ccc3ccccc3c1)CS2", "read-out": "inhibition", "tested at": "1 µg/mL", "cell line": "RK-13", "species": "Encephalitozoon intestinalis", "value": "74.1%"}
{"SMILES": "CC(C)(CO)C(=O)SCCOP(=O)(NCc1ccccc1)OC[C@H]1O[C@@H](n2cnc3c(=O)[nH]c(N)nc32)[C@](C)(O)[C@@H]1O", "changes": "Q30R", "method": "replicon", "read-out": "fold resistance", "strain": "GT1a", "cell line": "Replicon cells", "species": "Hepatitis C virus", "value": "1.04"}
{"SMILES": "O=C(Nc1ccc(Cl)cc1)c1cc(Cl)ccc1OP(=O)(Oc1ccccc1)c1ccccc1", "read-out": "MIC", "strain": "My 6509/96", "species": "Mycobacterium kansasii", "conditions": "7 d", "value": "8 µM"}
{"SMILES": "COc1cc2oc(=O)ccc2cc1CC(O)C(C)(C)O", "method": "agar diffusion", "read-out": "zone", "tested at": "250 µg/disc", "species": "Staphylococcus epidermidis", "value": "16 mm"}
{"SMILES": "CCOc1cc(Cc2cnc(N)nc2N)cc(OCC)c1-n1cccc1", "read-out": "MIC", "strain": "Isolate 8756", "species": "Mycobacterium ulcerans", "value": "1 µg/mL"}
{"SMILES": "C#CC[C@@H](C(=O)N[C@H](/C=C/C(=O)OCC)C[C@@H]1CCNC1=O)n1cccc(NC(=O)c2cc(C)on2)c1=O", "method": "cytopathic effect / XTT", "read-out": "EC50", "strain": "Serotype 84", "cell line": "H1-HELA", "species": "Rhinovirus", "value": "0.028 µM"}
{"SMILES": "CCCN1CCN(c2cc(=O)c3nc4c(oc3c2)c2c(=O)c3c(O)c(C)c5c(c34)=C(O)[C@@](C)(O/C=C/[C@H](OC)[C@@H](C)[C@@H](OC(C)=O)[C@H](C)[C@H](O)[C@H](C)[C@@H](O)[C@@H](C)/C=C/C=C(/C)C(=O)N2)O5)CC1", "read-out": "MIC", "strain": "ATCC 29213", "species": "Staphylococcus aureus", "value": "0.0039 µg/mL"}
{"SMILES": "CCN(CC)CCCC(C)Nc1c2ccc(Cl)cc2nc2ccc(OC)cc12", "read-out": "inhibition", "tested at": "1 µg/mL", "cell line": "RK-13", "species": "Encephalitozoon intestinalis", "value": "36.7%"}
{"SMILES": "CCO/N=C/c1ccc(OCCC2CCN(c3ccc(C)nn3)CC2)cc1", "method": "neutral red", "read-out": "EC50", "strain": "FO 1-3772 (ICAM-1 receptor group 52)", "cell line": "KB", "species": "Rhinovirus", "value": "0.011 µM"}
{"SMILES": "CC1(C)[C@@H](O[C@H]2O[C@H](C(=O)O)[C@@H](O)[C@H](O)[C@H]2O[C@@H]2O[C@H](C(=O)O)[C@@H](O)[C@H](O)[C@H]2O)CC[C@]2(C)[C@H]3C(=O)C=C4[C@@H]5C[C@@](C)(C(=O)O)CC[C@]5(C)CC[C@@]4(C)[C@]3(C)CC[C@@H]12", "method": "virus yield", "read-out": "EC50", "strain": "E101", "cell line": "VERO", "species": "West Nile virus", "value": "<625 µg/mL"}
{"SMILES": "Nc1ncnc2c1ncn2C[C@H](CO)OCP(=O)(O)O", "method": "virus yield", "read-out": "EC90", "strain": "TAK (TYPE 41)", "species": "Adenovirus", "value": "0.4 µg/mL"}
{"SMILES": "Cc1c(N2C[C@@H](F)[C@@H](C3(N)CC3)C2)c(F)c(N)c2c(=O)c(C(=O)O)cn([C@@H]3C[C@@H]3F)c12", "read-out": "MIC50", "strain": "38 strains (ampicillin-susceptible)", "species": "Haemophilus influenzae", "value": "0.008 µg/mL"}
{"SMILES": "O=C1C=CN([C@@H]2O[C@H](CO)[C@@H](O)[C@H]2O)C(=O)C1", "method": "cytopathic effect / visual reading", "read-out": "EC50", "strain": "NEW YORK", "cell line": "VERO", "species": "West Nile virus", "value": ">683 µg/mL"}
{"SMILES": "CCOC(=O)Nc1cc2c(c(N)n1)N=C(c1ccc(OC)c(OC)c1)CO2", "read-out": "inhibition", "tested at": "0.001 µg/mL", "cell line": "RK-13", "species": "Encephalitozoon intestinalis", "value": "2.9%"}
{"SMILES": "O=c1cc[nH]c(=S)[nH]1", "method": "cytopathic effect", "read-out": "EC50", "strain": "NEW YORK", "cell line": "VERO", "species": "West Nile virus", "value": "100 µg/mL"}
{"SMILES": "Nc1ccn(C[C@@H](CO)OCP(=O)(O)O)c(=O)n1", "method": "plaque count", "read-out": "EC50", "strain": "OKA", "cell line": "HEL", "species": "Varicella zoster virus", "value": "0.067 µg/mL"}
{"SMILES": "NC(=O)c1csc([C@@H]2O[C@H](COP(=O)(O)CP(=O)(O)OC[C@H]3O[C@@H](n4cnc5c(N)ncnc54)[C@H](O)[C@@H]3O)[C@@H](O)[C@H]2O)n1", "method": "cytopathic effect / visual reading", "read-out": "EC50", "strain": "Uganda", "cell line": "VERO", "species": "West Nile virus", "value": "22 µg/mL"}
{"SMILES": "O=C1c2cc(Br)ccc2OP(=O)(c2ccccc2)N1c1ccc(C(F)(F)F)cc1", "read-out": "MIC", "strain": "My 6509/96", "species": "Mycobacterium kansasii", "conditions": "7 d", "value": "8 µM"}
{"SMILES": "NC(=O)c1nc(F)c[nH]c1=O", "method": "plaque count", "read-out": "EC50", "strain": "H1N1 SUITA/1/89", "cell line": "MDCK", "species": "Influenza A virus", "value": "0.029 µg/mL"}
{"SMILES": "CN(C)[C@@H]1C(=O)C(C(N)=O)=C(O)[C@@]2(O)C(=O)C3=C(O)c4c(O)c(NC(=O)CN5CCOCC5)cc(F)c4C[C@H]3C[C@@H]12", "method": "agar diffusion", "read-out": "MIC", "strain": "159-tet", "species": "Enterococcus faecalis", "value": "8 µg/mL"}
{"SMILES": "Nc1ccn(C[C@@H](CO)OCP(=O)(O)O)c(=O)n1", "method": "virus yield", "read-out": "EC90", "strain": "TRIM (TYPE 8)", "species": "Adenovirus", "value": "2 µg/mL"}
{"SMILES": "C[C@@H](O)[C@H]1C(=O)N2C(C(=O)O)=C(SCCN=CN)C[C@H]12", "read-out": "MIC50", "strain": "25 strains (methicillin-susceptible)", "species": "Staphylococcus aureus", "value": "0.06 µg/mL"}
{"SMILES": "O=C(Nc1ccc(C(F)(F)F)cc1)c1cc(Br)ccc1OP(=O)(Oc1ccccc1)Oc1ccccc1", "read-out": "MIC", "strain": "My 235/80", "species": "Mycobacterium kansasii", "conditions": "7 d", "value": "2 µM"}
{"SMILES": "CO[C@@H]1[C@H](OC(=O)NC(=O)CCl)CC[C@]2(CO2)[C@H]1[C@@]1(C)O[C@@H]1CC=C(C)C", "read-out": "inhibition", "tested at": "0.001 µg/mL", "cell line": "RK-13", "species": "Vittaforma corneae", "value": "75.1%"}
{"SMILES": "O=C(Nc1ccc(Cl)c(Cl)c1)c1cc(Cl)ccc1OP(=O)(c1ccccc1)c1ccccc1", "read-out": "MIC", "strain": "My 6509/96", "species": "Mycobacterium kansasii", "conditions": "7 d", "value": "4 µM"}
{"SMILES": "COc1cc(Cc2cnc(N)nc2N)cc(OC)c1Br", "read-out": "MBC", "strain": "ATCC 19423", "species": "Mycobacterium ulcerans", "value": "8 µg/mL"}
{"SMILES": "C[C@H](Cc1ccc(O)c(O)c1)[C@@H](C)Cc1ccc(O)c(O)c1", "method": "broth dilution", "read-out": "MIC80", "strain": "CCC 130-2000", "species": "Candida albicans", "value": "250 µg/mL"}
{"SMILES": "O=C(O)P(=O)(O)O", "method": "plaque count", "read-out": "EC50", "strain": "ACV-resistant", "cell line": "HEL", "species": "Varicella zoster virus", "value": "10.8 µg/mL"}
{"SMILES": "O=C(Nc1ccc(Cl)cc1)c1cc(Cl)ccc1OP(=O)(c1ccccc1)c1ccccc1", "read-out": "MIC", "strain": "My 6509/96", "species": "Mycobacterium kansasii", "conditions": "14 d", "value": "8 µM"}
{"SMILES": "NC(=O)c1ncn([C@@H]2O[C@H](CO)[C@@H](O)[C@H]2O)c1O", "method": "plaque count", "read-out": "EC50", "strain": "TYPE A/LONG", "cell line": "HeLa", "species": "Respiratory syncytial virus", "value": "1.6 µg/mL"}
{"SMILES": "CC[C@H]1OC(=O)[C@H](C)[C@@H](O[C@H]2C[C@@](C)(OC)[C@@H](O)[C@H](C)O2)[C@H](C)[C@@H](O[C@@H]2O[C@H](C)C[C@H](N(C)C)[C@H]2O)[C@](C)(OC)C[C@@H](C)C(=O)[C@H](C)[C@@H](O)[C@]1(C)O", "read-out": "MIC90", "strain": "16 strains (methicillin- quinolone-resistant)", "species": "Staphylococcus aureus", "value": ">32 µg/mL"}
{"SMILES": "O=C(Nc1ccc(Cl)cc1)c1cc(Cl)ccc1OP(=O)(Oc1ccccc1)Oc1ccccc1", "read-out": "MIC", "strain": "My 6509/96", "species": "Mycobacterium kansasii", "conditions": "21 d", "value": "8 µM"}
{"SMILES": "CO/N=C1\\CN(c2nc3c(cc2F)c(=O)c(C(=O)O)cn3C2CC2)CC1CN", "read-out": "MIC50", "strain": "25 strains (methicillin-susceptible)", "species": "Staphylococcus aureus", "value": "0.06 µg/mL"}
{"SMILES": "Cc1ncc([N+](=O)[O-])n1CCO", "read-out": "inhibition", "tested at": "1 µg/mL", "cell line": "RK-13", "species": "Encephalitozoon intestinalis", "value": "36.2%"}

A second listing of 3 rows from above:

SMILES,changes,method,read-out,strain,tested at,cell line,species,conditions,value
CCCN1CCN(c2cc(=O)c3nc4c(oc3c2)c2c(=O)c3c(O)c(C)c5c(c34)=C(O)[C@@](C)(O/C=C/[C@H](OC)[C@@H](C)[C@@H](OC(C)=O)[C@H](C)[C@H](O)[C@H](C)[C@@H](O)[C@@H](C)/C=C/C=C(/C)C(=O)N2)O5)CC1,-,-,MIC,ATCC 29213,-,-,Staphylococcus aureus,-,0.0039 µg/mL
Nc1ncnc2c1ncn2C[C@H](CO)OCP(=O)(O)O,-,virus yield,EC90,TAK (TYPE 41),-,-,Adenovirus,-,0.4 µg/mL
Cc1ncc([N+](=O)[O-])n1CCO,-,-,inhibition,-,1 µg/mL,RK-13,Encephalitozoon intestinalis,-,36.2%